# Assay results published in article PMC4682845, “Critical Assessment of the Important Residues Involved in the Dimerization and Catalysis of MERS Coronavirus Main Protease” (2015).
# pKd: −log10 of the molar value.
# Assays:
# [1] = molecular target: MERS-CoV M^pro E169A mutant (MERS-CoV)
# [2] = molecular target: MERS-CoV M^pro M298R mutant (MERS-CoV)
# [3] = molecular target: MERS-CoV M^pro T126S mutant (MERS-CoV)
# [4] = molecular target: MERS-CoV M^pro V4R mutant (MERS-CoV)
substance,measurement,setting,value
MERS-CoV M^pro E169A mutant,stoichiometry N,[1],8
MERS-CoV M^pro M298R mutant,stoichiometry N,[2],2
MERS-CoV M^pro T126S mutant,pKd,[3],4.47
MERS-CoV M^pro V4R mutant,pKd,[4],4.64
